Compound potency records, mixed from different reports. Data source: NIAID ChemDB in PubChem.

Shared fields: tests in culture; agent: Candida albicans; endpoint: zone

An empty or dashed field is not shown.

O=C1N[C@@H](Cc2c[nH]c3ccccc23)C(=O)N2CCC[C@@H]12 ; strain or isolate: MTCC 277 ; method: agar diffusion / agar ; dose: 8 µg/mL ; value: 17 mm
COc1ccc(C2=NN(c3ccc(S(N)(=O)=O)cc3)C(c3ccc(OC)cc3OC)C2)c(O)c1 ; strain or isolate: MTCC 227 ; method: agar diffusion / agar ; dose: 4 mg/mL ; value: 0 mm
CN(C)/C=C/C(=O)c1nn(-c2ccccc2)cc1-c1ccc([N+](=O)[O-])cc1 ; method: agar diffusion / agar ; dose: 5 mg/mL ; value: 9 mm
COc1cc(C2C=C(c3ccc4c(c3)OCO4)NC(SCC(=O)Nc3ccc(Cl)cc3)N2)cc(OC)c1OC ; strain or isolate: DSM 70014 ; method: agar diffusion / agar ; dose: 1 mg/mL ; value: 14 mm
Cc1ccc(N2C(=O)N(c3ccc(Oc4ccc(N5C(=N)C(=S)N(c6ccc(C)cc6)C5=O)cc4)cc3)C(=N)C2=S)cc1 ; method: agar diffusion / agar ; dose: 100000 µM ; value: 21 mm
Cc1nc2ccccc2n(CC(=O)NN2C(=O)CSC2c2ccc([N+](=O)[O-])cc2)c1=O ; dose: 100 µg/mL ; value: 21 mm
N#Cc1ccc(Nc2nc(Oc3ccnc4ccccc34)nc(N3CCN(Cc4ccccc4)CC3)n2)cc1C(F)(F)F ; strain or isolate: MTCC 183 ; method: agar ; dose: 100 µg/mL ; value: <10 mm
Brc1ccccc1-c1nnc(CN2CCC(n3nc4ccccc4n3)CC2)o1 ; dose: 600 µg/mL ; value: 4.03 mm
Cc1ccc(S(=O)(=O)CNc2oc3[nH]c(=O)[nH]c(=O)c3c2-c2ccc(F)cc2)cc1 ; method: agar diffusion / agar ; dose: 100 µg/mL ; value: 15 mm
CCOc1ccc(N2C(=O)N(CCCCCCN3C(=N)C(=S)N(c4ccc(OCC)cc4)C3=O)C(=N)C2=S)cc1 ; method: agar diffusion / agar ; dose: 100000 µM ; value: 21 mm
Clc1ccc(COC(Cn2ccnc2)c2ccc(Cl)cc2Cl)c(Cl)c1 ; method: agar diffusion ; dose: 100 µg/mL ; value: 19 mm
C/C=C/N1C(=S)N(CN2CCN(c3ccccn3)CC2)NC1C12CC3CC(CC(C3)C1)C2 ; strain or isolate: IFO 0583 ; method: agar diffusion / agar ; dose: 200 µg/disc ; value: <10 mm
Cc1ccc(S(=O)(=O)CNc2oc3[nH]c(=O)[nH]c(=O)c3c2-c2ccsc2C=O)cc1 ; method: agar diffusion / agar ; dose: 100 µg/mL ; value: 3 mm
Cc1ccc(-n2cc(-c3ccc([N+](=O)[O-])cc3)c(-c3ccn[nH]3)n2)cc1 ; method: agar diffusion / agar ; dose: 2.5 mg/mL ; value: 8 mm
N#Cc1c(-c2ccccc2)nc2ncc(/C=C3\SC(=O)NC3=O)c(-c3ccccc3O)n2c1=O ; strain or isolate: fungal strain ; method: agar diffusion / agar ; dose: 100 µg/mL ; value: 12 mm
CCCCCCCCCCCCCCCCCCCCCC[C@H](O)CCCCCC ; method: agar diffusion / agar ; dose: 1000 µg/mL ; value: 12 mm
N=C1C(=S)N(c2ccc(F)cc2)C(=O)N1CCCCCCN1C(=N)C(=S)N(c2ccc(F)cc2)C1=O ; strain or isolate: IMRU-3669 ; method: agar diffusion / agar ; dose: 5 mg/mL ; value: 16.5 mm
Cc1ccc(O)c(O)c1O ; dose: 50 µg/mL ; value: 12 mm
C[C@H]1[C@H](O)[C@@H](C)/C=C/C=C/C=C/C=C/C=C/C=C/C=C/[C@H](O[C@@H]2O[C@H](C)[C@@H](O)[C@H](N)[C@@H]2O)C[C@@H]2O[C@](O)(C[C@@H](O)C[C@@H](O)CC[C@H](O)[C@@H](O)C[C@@H](O)CC(=O)O[C@H]1C)C[C@H](O)[C@H]2C(=O)O ; strain or isolate: MTCC 277 ; method: agar diffusion / agar ; dose: 50 µg/mL ; value: 23.5 mm
O=C1NC(=O)/C(=C/c2cc3c(=O)n(-c4ccccc4)nc-3oc2-c2ccccc2O)S1 ; strain or isolate: fungal strain ; method: agar diffusion / agar ; dose: 100 µg/mL ; value: 8 mm
COc1ccc(C2=NN(C(C)=O)C(c3cc(OC)c(OC)c(OC)c3)C2)cc1OC ; strain or isolate: DSM 70014 ; method: agar diffusion / agar ; dose: 1 mg/mL ; value: 12 mm
C=C1CC[C@@H](OC(C)=O)[C@]2(C)[C@H](OC(C)=O)[C@H](OC(C)=O)[C@H](OC(C)=O)[C@@]3(CO3)[C@H]2[C@@H](OC(C)=O)[C@@]2(O)[C@H](C)C(=O)O[C@@H]2[C@@H]1Cl ; method: agar diffusion / agar ; dose: 200 µg/mL ; value: 8 mm
Cc1ccc(S(=O)(=O)CNc2oc3[nH]c(=O)[nH]c(=O)c3c2-c2ccc(O)cc2)cc1 ; method: agar diffusion / agar ; dose: 50 µg/mL ; value: 0 mm
CC(=O)C1=NN(c2ccccc2)C2=Nc3nccc(-c4nn(-c5ccccc5)cc4-c4ccc([N+](=O)[O-])cc4)c3C(=O)C12 ; method: agar diffusion / agar ; dose: 5 mg/mL ; value: 10 mm
Cc1ccc(-c2nnc(CN3CCC(n4nc5ccccc5n4)CC3)o2)cc1Br ; dose: 300 µg/mL ; value: 3.23 mm
COc1ccc(/C=N/c2nnc(-c3cc4ccccc4oc3=O)o2)cc1 ; strain or isolate: ATCC 10231 ; method: agar diffusion ; dose: 100 µg/mL ; value: 12 mm
COc1ccc(C2=NN(c3ccccc3)C(c3cc(OC)c(OC)c(OC)c3)C2)cc1OC ; strain or isolate: DSM 70014 ; method: agar diffusion / agar ; dose: 1 mg/mL ; value: 14 mm
COc1ccc(C2CC(c3ccc(F)cc3)=NN2c2ccc(S(N)(=O)=O)cc2)c(OC)c1 ; strain or isolate: MTCC 227 ; method: agar diffusion / agar ; dose: 4 mg/mL ; value: 0 mm
Clc1ccc(-c2nn(-c3ccccc3)cc2C2CC(c3ccc(Cl)cc3Cl)=NN2c2ccccc2)cc1 ; strain or isolate: MTCC 227 ; dose: 500 µg/mL ; value: 2 mm
C=CC(C)(C)c1cc(C2CC(=O)c3c(cc(O)c(CC=C(C)C)c3O)O2)c(O)cc1O ; strain or isolate: hemoculture isolate 15564 ; method: agar diffusion / agar ; dose: 2 mg/mL ; value: 16 mm
COc1ccc(NC(=O)CSC2NC(c3ccc4c(c3)OCO4)=CC(c3cc(OC)c(OC)c(OC)c3)N2)cc1 ; strain or isolate: DSM 70014 ; method: agar diffusion / agar ; dose: 1 mg/mL ; value: 16 mm
N=C1C(=S)N(c2ccc(Cl)cc2)C(=O)N1CCCCCCN1C(=N)C(=S)N(c2ccc(Cl)cc2)C1=O ; method: agar diffusion / agar ; dose: 100000 µM ; value: 19 mm
COC1=CC(=O)C[C@@H](C)[C@]12Oc1c(Cl)c(OC)cc(OC)c1C2=O ; strain or isolate: IMRU-3669 ; method: agar diffusion / agar ; dose: 5 mg/mL ; value: 23 mm
COc1ccc(C2=CC(c3cc(OC)c(OC)c(OC)c3)N3C(=O)CSC3=N2)cc1OC ; strain or isolate: DSM 70014 ; method: agar diffusion / agar ; dose: 1 mg/mL ; value: 14 mm
Clc1ccc(-c2nn(-c3ccccc3)cc2C2CC(c3ccc(-c4ccccc4)cc3)=NN2c2ccccc2)cc1 ; strain or isolate: MTCC 227 ; dose: 500 µg/mL ; value: 2 mm
CSc1ccc(NC(=O)NCCn2c(-c3ccccc3)nc3ccc([N+](=O)[O-])cc3c2=O)cc1 ; strain or isolate: ATCC 66027 ; method: broth dilution / agar diffusion ; dose: 100 µg/mL ; value: 15 mm
COc1ccc(C2=CC(c3cc(OC)c(OC)c(OC)c3)NC(=O)N2)cc1OC ; strain or isolate: DSM 70014 ; method: agar diffusion / agar ; dose: 1 mg/mL ; value: 15 mm
C1=N\n2c(nnc2-c2cccnc2)SCCCCSc2nnc(-c3cccnc3)n2/N=C\c2ccccc2OCCCCOc2ccccc2/1 ; strain or isolate: RCMB 005003 ; method: agar diffusion / agar ; dose: 5 mg/mL ; value: 1–5 mm
NNC(=O)c1cc2ccccc2oc1=O ; strain or isolate: ATCC 10231 ; method: agar diffusion ; dose: 100 µg/mL ; value: 8 mm
NNc1ncnc2c1cc(-c1ccccc1)n2-c1ccccc1 ; strain or isolate: 10145 ; method: agar diffusion / agar ; dose: 5 mg/mL ; value: 15 mm
COc1ccc(C2=NN(c3ccc([N+](=O)[O-])cc3)C(c3cc(OC)c(OC)c(OC)c3)C2)cc1OC ; strain or isolate: DSM 70014 ; method: agar diffusion / agar ; dose: 1 mg/mL ; value: 14 mm
O=C(CN1CCN(c2ccccc2O)CC1)N1c2ccccc2Sc2ccccc21 ; method: agar diffusion ; dose: 0.1 µg/mL ; value: 0 mm
COc1ccc(C2SCC(=O)N2NC(=O)Cn2c(=O)c(C)nc3ccccc32)cc1O ; dose: 50 µg/mL ; value: 11 mm
Cc1ccccc1N1CCN(CC(=O)N2c3ccccc3Sc3ccccc32)CC1 ; method: agar diffusion ; dose: 0.1 µg/mL ; value: 0 mm
N=C1C(=S)N(c2ccc(F)cc2)C(=O)N1c1ccc(Cl)cc1 ; strain or isolate: IMRU-3669 ; method: agar diffusion / agar ; dose: 5 mg/mL ; value: 23 mm
Clc1ccc(C2=NN(c3ccccc3)C(c3cn(-c4ccccc4)nc3-c3ccc(Br)cc3)C2)c(Cl)c1 ; strain or isolate: MTCC 227 ; dose: 1000 µg/mL ; value: 3 mm
COc1cc(C2CC(c3ccc4c(c3)OCO4)=NN2c2ccc([N+](=O)[O-])cc2)cc(OC)c1OC ; strain or isolate: DSM 70014 ; method: agar diffusion / agar ; dose: 1 mg/mL ; value: 15 mm
COc1ccc(C2SCC(=O)N2NC(=O)Cn2c(=O)c(C)nc3ccccc32)cc1OC ; dose: 50 µg/mL ; value: 10 mm
O=C(NCCn1c(-c2ccccc2)nc2ccc([N+](=O)[O-])cc2c1=O)Nc1cc(C(F)(F)F)ccc1Cl ; strain or isolate: ATCC 66027 ; method: broth dilution / agar diffusion ; dose: 100 µg/mL ; value: 14 mm
O=C(c1cn2cnnc2nn1)c1nn(-c2ccccc2)cc1-c1ccc([N+](=O)[O-])cc1 ; method: agar diffusion / agar ; dose: 5 mg/mL ; value: 9 mm
Fc1cccc(-c2nnc(CN3CCC(n4nc5ccccc5n4)CC3)o2)c1F ; dose: 300 µg/mL ; value: 3.33 mm
CCOC(=O)N1CCN(CN2NC(C34CC5CC(CC(C5)C3)C4)N(CC)C2=S)CC1 ; strain or isolate: IFO 0583 ; method: agar diffusion / agar ; dose: 200 µg/disc ; value: <10 mm
Cc1nc2ccccc2n(CC(=O)NN2C(=O)CSC2c2ccc(O)cc2)c1=O ; dose: 100 µg/mL ; value: 22 mm
CC1CCC(NC(=O)NCCn2c(-c3ccccc3)nc3ccc([N+](=O)[O-])cc3c2=O)CC1 ; strain or isolate: ATCC 66027 ; method: broth dilution / agar diffusion ; dose: 100 µg/mL ; value: 15 mm
COc1ccc(N2C(=O)N(c3ccc(Oc4ccc(N5C(=N)C(=S)N(c6ccc(OC)cc6)C5=O)cc4)cc3)C(=N)C2=S)cc1 ; method: agar diffusion / agar ; dose: 100000 µM ; value: 26 mm
CCOc1ccc(N2C(=O)N(c3ccc(Cl)c(C(F)(F)F)c3)C(=N)C2=S)cc1 ; strain or isolate: IMRU-3669 ; method: agar diffusion / agar ; dose: 5 mg/mL ; value: 17 mm
C/C=C/N1C(=S)N(CN2CCN(CC)CC2)NC1C12CC3CC(CC(C3)C1)C2 ; strain or isolate: IFO 0583 ; method: agar diffusion / agar ; dose: 200 µg/disc ; value: <10 mm
COc1ccc(/C=N/c2nnc(-c3cc4ccccc4oc3=O)o2)cc1OC ; strain or isolate: ATCC 10231 ; method: agar diffusion ; dose: 100 µg/mL ; value: 10 mm
Clc1ccc(C2=NN(c3ccccc3)C(c3cn(-c4ccccc4)nc3-c3ccccc3)C2)c(Cl)c1 ; strain or isolate: MTCC 227 ; dose: 1000 µg/mL ; value: 0 mm
O=C(NCCn1c(-c2ccccc2)nc2ccc([N+](=O)[O-])cc2c1=O)Nc1ccccc1 ; strain or isolate: ATCC 66027 ; method: broth dilution / agar diffusion ; dose: 100 µg/mL ; value: 17 mm
O=C1NC(=O)/C(=C/c2cnn(-c3ccccc3)c2-c2ccccc2O)S1 ; strain or isolate: fungal strain ; method: agar diffusion / agar ; dose: 100 µg/mL ; value: 10 mm
C/C=C/C1=CC2=CC(=O)[C@](C)(OC(=O)c3c(C)cc(O)c(O)c3OC)C(=O)C2=CO1 ; strain or isolate: ATCC 64548 ; method: agar diffusion ; dose: 20 µg/disc ; value: 0 mm
COc1ccc(C2CC(c3ccc(F)cc3)=NN2c2ccc(S(N)(=O)=O)cc2)cc1OC ; strain or isolate: MTCC 227 ; method: agar diffusion / agar ; dose: 4 mg/mL ; value: 0 mm
C=C1CC[C@H](C)[C@@]2(C)[C@@H](OC(=O)CC(C)C)C[C@@H](OC(C)=O)[C@]3(CO3)[C@@H]2[C@H](OC(C)=O)[C@@]2(O)[C@H](C1)OC(=O)[C@@H]2C ; method: agar diffusion / agar ; dose: 200 µg/mL ; value: 17 mm
N#CNc1ncc(/C=C2\SC(=O)NC2=O)c(-c2ccccc2O)n1 ; strain or isolate: fungal strain ; method: agar diffusion / agar ; dose: 100 µg/mL ; value: 8 mm
Cc1ccc(N2C(=O)N(CCCCCCN3C(=N)C(=S)N(c4ccc(C)cc4)C3=O)C(=N)C2=S)cc1 ; method: agar diffusion / agar ; dose: 100000 µM ; value: 20 mm

The last 6 rows once more:

SMILES | strain or isolate | method | dose | value
O=C1NC(=O)/C(=C/c2cnn(-c3ccccc3)c2-c2ccccc2O)S1 | fungal strain | agar diffusion / agar | 100 µg/mL | 10 mm
C/C=C/C1=CC2=CC(=O)[C@](C)(OC(=O)c3c(C)cc(O)c(O)c3OC)C(=O)C2=CO1 | ATCC 64548 | agar diffusion | 20 µg/disc | 0 mm
COc1ccc(C2CC(c3ccc(F)cc3)=NN2c2ccc(S(N)(=O)=O)cc2)cc1OC | MTCC 227 | agar diffusion / agar | 4 mg/mL | 0 mm
C=C1CC[C@H](C)[C@@]2(C)[C@@H](OC(=O)CC(C)C)C[C@@H](OC(C)=O)[C@]3(CO3)[C@@H]2[C@H](OC(C)=O)[C@@]2(O)[C@H](C1)OC(=O)[C@@H]2C | - | agar diffusion / agar | 200 µg/mL | 17 mm
N#CNc1ncc(/C=C2\SC(=O)NC2=O)c(-c2ccccc2O)n1 | fungal strain | agar diffusion / agar | 100 µg/mL | 8 mm
Cc1ccc(N2C(=O)N(CCCCCCN3C(=N)C(=S)N(c4ccc(C)cc4)C3=O)C(=N)C2=S)cc1 | - | agar diffusion / agar | 100000 µM | 20 mm

a–b is a range or a potency band. Conditions beyond the fields shown may differ between rows. Zones are inhibition diameters on agar.